Potato spindle tuber viroid, loop 6: variant abundance in plants

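Three N. benthamiana plants were inoculated with the whole mutant pool. Samples came from the inoculated region at 5 days, the leaf margin at 10 and upper systemic leaves at 12.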

The pool varies loop 6 of the PSTVd intermediate strain in the pattern UNNNCGNNNG; wild type is UGACCGCGAG (upper and lower strand joined, each 5' to 3', the first 5 letters being the upper strand, closing pairs included).

Values are reads per thousand in the sample; higher means more abundant, 0 means not found.
Each site shows the three plants.
"Pool" is the share in the plasmid pool used as inoculum, on the same scale.
The inoculated region was read from the minus strand, the other sites from the plus strand.
Samples held 36,220 to 57,551 reads, so the smallest values rest on one or two reads.
Sequences that differ at fixed positions probably stem from PCR or sequencing errors, and defective variants can be carried along by functional ones.
Wild type was 20.7 per thousand in the pool and the most common sequence in every sample (inoculated region 195, 198, 203; leaf margin 629, 591, 734; systemic leaves 942, 870, 868).

sequence	pool	inoculated region	leaf margin	systemic leaves
UGGGCGUAAG	0.157	0.139 / 0.0359 / 0.0738	0 / 0 / 0.0232	0 / 0 / 0
UGGGCGUACG	0.157	0.104 / 0.0898 / 0.0369	0 / 0 / 0.0232	0 / 0 / 0
UGGGCGUAGG	0.157	0.139 / 0.108 / 0.111	0 / 0 / 0	0 / 0 / 0
UGGGCGUAUG	0.222	0.174 / 0.0719 / 0.0738	0.248 / 0 / 0	0 / 0 / 0
UGGGCGUCAG	0.288	0.139 / 0.0719 / 0.0553	0.0276 / 0 / 0	0 / 0 / 0
UGGGCGUCCG	0.170	0.0695 / 0.0539 / 0.0553	0 / 0 / 0	0 / 0 / 0
UGGGCGUCGG	0.248	0.0521 / 0.0359 / 0.0184	0 / 0 / 0	0 / 0 / 0
UGGGCGUCUG	0.209	0.156 / 0.108 / 0.0553	0 / 0 / 0.0464	0 / 0 / 0
UGGGCGUGAG	0.222	0.122 / 0.0719 / 0.0553	0.0276 / 0 / 0	0 / 0 / 0
UGGGCGUGCG	0.144	0.139 / 0.0539 / 0.0184	0 / 0 / 0.0232	0 / 0 / 0
UGGGCGUGGG	0.157	0.0521 / 0.0898 / 0.148	0 / 0 / 0	0 / 0 / 0
UGGGCGUGUG	0.222	0.122 / 0.108 / 0.0738	0 / 0 / 0	0 / 0 / 0
UGGGCGUUAG	0.314	0.156 / 0.198 / 0.0369	0.0276 / 0 / 0	0 / 0 / 0
UGGGCGUUCG	0.170	0.174 / 0.108 / 0.0553	0.0828 / 0 / 0	0 / 0 / 0
UGGGCGUUGG	0.327	0.174 / 0.108 / 0.0184	0 / 0 / 0.0464	0 / 0 / 0
UGGGCGUUUG	0.261	0.0869 / 0.0898 / 0.0922	0 / 0 / 0.0232	0 / 0 / 0
UGGUCGAAAG	0.183	0.104 / 0.0898 / 0.0553	0 / 0 / 0	0 / 0 / 0
UGGUCGAACG	0.196	0.104 / 0.108 / 0.111	0 / 0 / 0	0 / 0 / 0
UGGUCGAAGG	0.222	0.174 / 0.0898 / 0.0922	0.0276 / 0 / 0.0232	0 / 0 / 0
UGGUCGAAUG	0.458	0.0695 / 0.0898 / 0.0369	0 / 0 / 0.0232	0 / 0 / 0
UGGUCGACAG	0.314	0.0869 / 0.108 / 0.129	0 / 0 / 0.0232	0 / 0 / 0
UGGUCGACCG	0.222	0.0695 / 0.0719 / 0.0553	0.0276 / 0 / 0	0 / 0 / 0
UGGUCGACGG	0.353	0.0174 / 0.126 / 0.0922	0 / 0 / 0	0 / 0 / 0.0205
UGGUCGACUG	0.288	0.0695 / 0.0719 / 0.111	0.0276 / 0 / 0	0 / 0 / 0
UGGUCGAGAG	0.209	0.139 / 0.0719 / 0.0738	0.0552 / 0 / 0	0 / 0.0808 / 0
UGGUCGAGCG	0.209	0.0695 / 0.0719 / 0.111	0 / 0 / 0	0 / 0 / 0
UGGUCGAGGG	0.222	0.122 / 0.0539 / 0.0369	0 / 0 / 0	0 / 0 / 0
UGGUCGAGUG	0.261	0.0521 / 0.144 / 0.0922	0 / 0 / 0.0232	0 / 0 / 0
UGGUCGAUAG	0.209	0.104 / 0.144 / 0.111	0 / 0 / 0.162	0 / 0 / 0
UGGUCGAUCG	0.288	0.174 / 0.0359 / 0.0184	0.0276 / 0 / 0	0 / 0 / 0
UGGUCGAUGG	0.379	0.104 / 0.0898 / 0.0553	0.0276 / 0 / 0	0 / 0 / 0
UGGUCGAUUG	0.327	0.139 / 0.108 / 0.148	0.0276 / 0 / 0	0 / 0 / 0
UGGUCGCAAG	0.170	0.156 / 0.0719 / 0.203	0 / 0 / 0.0232	0 / 0 / 0
UGGUCGCACG	0.340	0.139 / 0.144 / 0.0922	0 / 0 / 0	0 / 0 / 0
UGGUCGCAGG	0.235	0.156 / 0.0539 / 0.0553	0 / 0 / 0	0 / 0 / 0
UGGUCGCAUG	0.183	0.122 / 0.108 / 0.0184	0.0276 / 0 / 0.0232	0 / 0 / 0
UGGUCGCCAG	0.157	0.122 / 0.108 / 0.0369	0 / 0 / 0	0 / 0 / 0.0615

A selection of 2 entries from above:

With UGGGCGUAAG (pool 0.157) the assay gave inoculated region 0.139 / 0.0359 / 0.0738; leaf margin 0 / 0 / 0.0232; systemic leaves 0 / 0 / 0.
With UGGGCGUGUG (pool 0.222) the assay gave inoculated region 0.122 / 0.108 / 0.0738; leaf margin 0 / 0 / 0; systemic leaves 0 / 0 / 0.

From the data files of Wu et al. 2024, doi:10.1371/journal.ppat.1012142.